Reference: PubChem BioAssay AID488895 (Broad Institute, 2010)
Only a part is listed here, and it is no random draw. Some structures show a salt or complex split into parts, the way the source records it. The source made the active and inactive calls.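 Rule for the calls: active = mean replicate inhibition at least 50% and at least half of replicates individually reaching 50%; inconclusive = only one of the two criteria met; inactive = neither criterion met.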

assay: E. coli Tat export inhibitors, primary screen, MC4100, TorA-mCherry reporter, fluorescence, single point (AID 488895); conditions: at 10 µM, hits give high values;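 note: exported cargo escapes ClpAP degradation while cytoplasmic cargo is degraded and loses fluorescence; 0% = median of neutral control wells and 100% = median of NaSCN control wells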

Row | Structure (SMILES) | inhibition
1 | O=C(O)c1cccc(Nc2c([N+](=O)[O-])cc([N+](=O)[O-])cc2[N+](=O)[O-])c1 | inactive: 3.74%
2 | CC1=NCCc2c1[nH]c1ccccc21.O=[N+]([O-])c1cc([N+](=O)[O-])c(O)c([N+](=O)[O-])c1 | inactive: -12.4%
3 | CCOC(=O)c1ccc(NP(C)(=O)Oc2cc(C)cc(C)c2)cc1 (centres undefined) | inactive: 2.91%
4 | Cc1cc(C)cc(OP(C)(=O)Nc2ccc(C)cc2C)c1 (centres undefined) | inactive: -5.34%
5 | COc1ccccc1OP(C)(=O)Nc1cccc(Br)c1 (centres undefined) | inactive: -4.97%
6 | Cc1ccc(C)c(NP(C)(=O)Oc2ccccc2)c1 (centres undefined) | inactive: 2.61%
7 | Cc1cc(C)cc(OP(C)(=O)Nc2ccccn2)c1 (centres undefined) | inactive: 2.15%
8 | CP(=O)(Nc1cccc(Br)c1)Oc1ccccc1 (centres undefined) | inactive: 5.23%
9 | O=[N+]([O-])c1cc([N+](=O)[O-])c(-n2nnc3ccccc32)c([N+](=O)[O-])c1 | inactive: -0.114%
10 | Cc1nc2ccc3ccccc3c2s1.O=[N+]([O-])c1cc([N+](=O)[O-])c(O)c([N+](=O)[O-])c1 | inactive: -3.27%
11 | O=[N+]([O-])c1cc([N+](=O)[O-])c(-c2cnn(-c3ccccc3)c2)c([N+](=O)[O-])c1 | inactive: -2.51%
12 | CCOC(=O)C(CC)C1=NC(C)(C)Cc2ccccc21.O=[N+]([O-])c1cc([N+](=O)[O-])c(O)c([N+](=O)[O-])c1 (centres undefined) | inactive: 1.33%
13 | CC1=C2N=C(C=C3N=C(C(C)=C4[N-][C@@](C)([C@@H]5N=C1[C@](C)(CCC(=O)NC[C@@H](C)OP(=O)([O-])O[C@H]1[C@@H](O)[C@@H](n6cnc7cc(C)c(C)cc76)O[C@@H]1CO)[C@H]5CC(N)=O)[C@@](C)(CC(N)=O)[C@@H]4CCC(N)=O)[C@@](C)(CC(N)=O)[C@@H]3CCC(N)=O)C(C)(C)[C@@H]2CCC(N)=O.[C-]#N.[Co+3] | inactive: 10.4%
14 | O=[N+]([O-])c1cc([N+](=O)[O-])c(Nc2nnnn2CCO)c([N+](=O)[O-])c1 | inactive: -2.82%
15 | CCCOc1ccc(NP(C)(=O)Oc2ccc(Cl)cc2)cc1 (centres undefined) | inactive: 0.615%
16 | CP(=O)(Nc1ccc(SC(F)(F)F)cc1)Oc1ccccc1 (centres undefined) | inactive: 5.73%
17 | COc1ccccc1OP(C)(=O)Nc1c(C)cccc1C (centres undefined) | inactive: 6.33%
18 | CN1CCCCC1COC(=O)C1(O)c2ccccc2CCc2ccccc21 (centres undefined) | inactive: 8.56%
19 | CP(=O)(Nc1ccccc1Br)Oc1ccccc1 (centres undefined) | inactive: 2.35%
20 | COc1ccccc1OP(C)(=O)Nc1ccccc1 (centres undefined) | inactive: 0.618%
21 | CP(=S)(Nn1cnnc1)Oc1ccccc1 (centres undefined) | inactive: -2.81%
22 | Cc1cc(C)cc(OP(C)(=O)Nc2ccc(SC(F)(F)F)cc2)c1 (centres undefined) | inactive: 12.7%
23 | CP(=O)(NC(=O)Nc1ccccc1)Oc1ccccc1 (centres undefined) | inactive: -1.49%

Row | Structure (SMILES) | inhibition
24 | CCc1ccc(OP(C)(=O)N2CCN(c3ccc([N+](=O)[O-])cc3)CC2)cc1 (centres undefined) | inactive: 2.38%
25 | CP(=O)(Oc1ccccc1)OC(c1ccccc1)C(F)(F)F (centres undefined) | inactive: 9.48%
26 | Cc1cccc(C)c1OP(C)(=O)Nc1ccc(SC(F)(F)F)cc1 (centres undefined) | inactive: 0.61%
27 | CP(=O)(Nc1ccccn1)Oc1ccc(Cl)cc1 (centres undefined) | inactive: -5.01%
28 | CCOC(=O)c1ccc(NP(C)(=O)Oc2ccc(OC)cc2)cc1 (centres undefined) | inactive: -2.07%
29 | CCOP(C)(=S)SCC(=O)NC(C)C(=O)O (centres undefined) | inactive: -6.17%
30 | CCN(CC)CCCOC(=O)C(O)(c1ccccc1)c1ccccc1 | inactive: 3.64%
31 | O=[N+]([O-])c1ccc2c(c1)C=Nc1ccccc1O2 | inactive: 16.9%
32 | Cc1cccc(C)c1OP(C)(N)=O (centres undefined) | inactive: -3.93%
33 | CC(C)(C)c1ccc(OP(C)(=O)Nc2ccc(SC(F)(F)F)cc2)cc1 (centres undefined) | inactive: 9.2%
34 | O=[N+]([O-])c1cc([N+](=O)[O-])c(Nc2cccnc2)c([N+](=O)[O-])c1 | inactive: 3.1%
35 | Cc1cc(C)cc(OP(C)(N)=O)c1 (centres undefined) | inactive: -3.22%
36 | COc1ccc(OP(C)(=O)Nc2cccc(F)c2)cc1 (centres undefined) | inactive: -1.72%
37 | COc1ccccc1OP(C)(=O)Nc1cc(Cl)ccc1C (centres undefined) | inactive: 3.45%
38 | Cc1ccc(NP(C)(=O)Oc2ccccc2)c(C)c1 (centres undefined) | inactive: -5.57%
39 | COc1ccccc1OP(C)(=O)Nc1ccc(C)cc1 (centres undefined) | inactive: -3.38%
40 | CCOC(=O)c1ccc(NP(C)(=O)Oc2ccccc2)cc1 (centres undefined) | inactive: -4.92%
41 | COc1ccccc1OP(C)(=O)Nc1ccc(C)c(C)c1 (centres undefined) | inactive: 2.49%
42 | COc1ccc(OP(C)(=O)Nc2ccccc2Br)cc1 (centres undefined) | inactive: -3.73%
43 | Cc1cc(C)cc(OP(C)(=O)Nc2cccc(C(F)(F)F)c2)c1 (centres undefined) | inactive: 23.1%
44 | O=C1C(O)=C([N+](=O)[O-])C(=O)C(O)=C1[N+](=O)[O-] | inactive: -4.24%
45 | CP(=O)(Nc1ccc(Cl)cc1Cl)Oc1ccccc1 (centres undefined) | inactive: 2.11%
46 | CP(=O)(OCCOc1ccccc1)OCCOc1ccccc1 | inactive: 6.64%

Row | Structure (SMILES) | inhibition
47 | COc1ccc(OP(C)(=O)Nc2ccccn2)cc1 (centres undefined) | inactive: 13.5%
48 | CN(C)CCOC(=O)C(O)(c1ccccc1)C1CCCC1 (centres undefined) | inactive: -3.22%
49 | COc1ccccc1OP(C)(=O)Nc1ccc(Br)cc1 (centres undefined) | inactive: 2.15%
50 | COc1ccccc1OP(C)(=O)Nc1ccc(C)cc1C (centres undefined) | inactive: -5.24%
51 | CP(=O)(Nc1ccccn1)Oc1ccccc1 (centres undefined) | inactive: 4.92%
52 | CCc1ccc(OP(C)(=O)O)cc1 | inactive: -8.34%
53 | Cc1c(NP(C)(=O)Oc2ccc(C(C)C)cc2)c(=O)n(-c2ccccc2)n1C (centres undefined) | inactive: -7.16%
54 | O=[N+]([O-])c1cc([N+](=O)[O-])c(Nc2ccccn2)c([N+](=O)[O-])c1 | inactive: -5.42%
55 | O=C(OCCCN1CCCC1)C(O)(c1ccccc1)C1CCCCC1 (centres undefined) | inactive: 3.78%
56 | COc1ccccc1OP(C)(=O)Nc1c(C)n(C)n(-c2ccccc2)c1=O (centres undefined) | inactive: 4%
57 | CCc1ccc(OP(C)(=O)Nc2cccnc2)cc1 (centres undefined) | inactive: 12.1%
58 | CP(=O)(Oc1ccccc1)N1CCOC1=O (centres undefined) | inactive: -2.54%
59 | COc1ccc(OP(C)(=O)Nc2ccc(Br)cc2)cc1 (centres undefined) | inactive: -3.03%
60 | CCN(CC)CC(O)COC(=O)C(O)(c1ccccc1)C1CCCCC1 (centres undefined) | inactive: 0.399%
61 | CN(C)C(=O)c1c([N+](=O)[O-])cc([N+](=O)[O-])cc1[N+](=O)[O-] | inactive: -3.53%
62 | COc1ccccc1OP(C)(=O)Nc1ccccc1Br (centres undefined) | inactive: -1.48%
63 | CC(C)(C)c1ccc(OP(C)(=O)O)cc1 | inactive: -7.28%
64 | CP(=O)(Nc1ccc(Cl)cc1)Oc1ccc(F)cc1 (centres undefined) | inactive: 3.4%
65 | CCOC(=O)c1ccc(NP(C)(=O)Oc2ccc(Cl)cc2)cc1 (centres undefined) | inactive: 4.14%
66 | CP(=O)(OC12CC3CC(CC(C3)C1)C2)OC12CC3CC(CC(C3)C1)C2 | inactive: -12.9%
67 | CN(C)CCOC(=O)C(O)(c1ccccc1)C1CCCCC1 (centres undefined) | inactive: 3.57%
68 | COc1ccc(NP(C)(=O)Oc2ccccc2OC)cc1 (centres undefined) | inactive: -0.419%
69 | COc1ccc(OP(C)(=O)Nc2cccc(Br)c2)cc1 (centres undefined) | inactive: -7.46%

Row | Structure (SMILES) | inhibition
70 | Cc1c(C(c2ccc3c(c2)OCO3)c2c(C)n(C)n(-c3ccccc3)c2=O)c(=O)n(-c2ccccc2)n1C.O=[N+]([O-])c1cc([N+](=O)[O-])c(O)c([N+](=O)[O-])c1 | inactive: 7.22%
71 | O=[N+]([O-])c1ccc(OP2(=O)COCCO2)cc1 (centres undefined) | inactive: -7.45%
72 | O=[N+]([O-])c1cc([N+](=O)[O-])c(NCC2CCS(=O)(=O)C2)c([N+](=O)[O-])c1 (centres undefined) | inactive: -5.38%
73 | Cc1cc(-c2cccc3ccccc23)c(C)cn1.O=[N+]([O-])c1cc([N+](=O)[O-])c(O)c([N+](=O)[O-])c1 | inactive: -5.28%
74 | CCOP(C)(=S)SCC(=O)NC(C)(CC)C(=O)O (centres undefined) | inactive: -14.4%
75 | CP(=O)(Nc1ccc(SC(F)(F)F)cc1)Oc1ccc(F)cc1 (centres undefined) | inactive: 15%
76 | Cc1ccccc1NP(C)(=O)Nc1ccccc1C | inactive: -2.13%
77 | CP(=O)(Nc1ccc2c(c1)OCCO2)Oc1ccccc1 (centres undefined) | inactive: -5.57%
78 | CP(=O)(Nc1ccccc1F)Oc1ccccc1 (centres undefined) | inactive: 4.26%
79 | CC(C)c1ccc(OP(C)(=O)Nc2ccc(SC(F)(F)F)cc2)cc1 (centres undefined) | inactive: 2.35%
80 | COc1ccc2c(c1O)-c1c(O)c(OC)cc3c1[C@H](C2)[N+](C)(C)CC3.O=[N+]([O-])c1cc([N+](=O)[O-])c([O-])c([N+](=O)[O-])c1[O-] | inactive: -4.89%
81 | O=C(OC1CN2CCC1CC2)c1ccc([N+](=O)[O-])cc1 (centres undefined) | inactive: 0.205%
82 | O=C(OCCN1CCN(CCOCc2ccccc2)CC1)C(O)(c1ccccc1)c1ccccc1 | inactive: 2.1%
83 | CCOC(=O)c1ccc(NP(C)(=O)Oc2ccc(F)cc2)cc1 (centres undefined) | inactive: -0.399%
84 | COc1ccc(OP(C)(=O)Nc2ccc(SC(F)(F)F)cc2)cc1 (centres undefined) | inactive: 5.51%
85 | CP(=O)(Nc1ccccc1)Oc1ccc(F)cc1 (centres undefined) | inactive: -0.141%
86 | O=[N+]([O-])c1cc([N+](=O)[O-])c(OC2CCCCC2O)c([N+](=O)[O-])c1 (centres undefined) | inactive: -6.22%
87 | CCCCCOc1ccc(NP(C)(=O)Oc2ccc(Cl)cc2Cl)cc1 (centres undefined) | inactive: 4.66%
88 | Cc1c([N+](=O)[O-])cc([N+](=O)[O-])c(Br)c1[N+](=O)[O-] | inactive: 0.45%
89 | CCN(CC)CCCOC(=O)C(O)(c1ccccc1)C1CCCCC1 (centres undefined) | inactive: -1.61%
